Results from paper PMC4326804.

Biological target: His6-tagged nucleocapsid (N) protein of tomato spotted wilt virus (TSWV) (tomato spotted wilt virus (Yunnan isolate))
Test: native gel or EMSA; 4-16% discontinuous blue native PAGE at 4 °C, cathode buffer 100 mM histidine pH 8.0 with 0.002% Coomassie G-250; purified N protein without PEI treatment (carries E. coli RNA); self-association

## His6-tagged nucleocapsid (N) protein of tomato spotted wilt virus (TSWV) (natural protein)
  stoichiometry N: 2
